Results of unrelated studies side by side (data: NIAID ChemDB).

Common to all: tests on isolated targets; species: Hepatitis C virus

Percent inhibition refers to the dose given; in toxicity tests it is the harm to the cells. Blank or dashed fields: not listed here. ICn is the concentration giving n% inhibition. Neighbouring rows are from separate reports. a–b is a range or a potency band.

| compound | endpoint | dose | protein | result |
|---|---|---|---|---|
| Cc1oc(-c2ccc(Cl)cc2)cc1-c1ccc2cc(-c3nc4cc(C(=O)O)ccc4n3C3CCCCC3)ccc2n1 | inhibition | 100 µM | NS5B polymerase | 102% |
| Cc1ccc(COC(=O)Nc2ccsc2-c2nc(C(=O)O)c(O)c(=O)[nH]2)cc1 | IC50 | - | HCV polymerase | <25 µM |
| CCC(=O)N(Cc1cccc(OC)c1)c1cc(-c2ccccc2)sc1C(=O)O | IC50 | - | NS3 ATPase | >20 µM |
| C[C@@H](C(=O)Nc1ccsc1-c1nc(C(=O)O)c(O)c(=O)[nH]1)c1ccccc1 | IC50 | - | HCV polymerase | <25 µM |
| Cc1ccccc1S(=O)(=O)Nc1cc(-c2ccc(C(N)=O)cc2)sc1C(=O)O | IC50 | - | NS3 ATPase | 5–20 µM |
| CCc1ccc(-c2ccc(OC)cc2-c2ccc3cc(-c4nc5cc(C(=O)O)ccc5n4C4CCCCC4)ccc3n2)cc1 | inhibition | 33 µM | NS5B polymerase | 103% |
| COc1cccc(-c2ccccc2-c2ccnc3cc(C(=O)NC4CCCC4)nn23)c1 | IC50 | - | RNA-dependent RNA polymerase | >10 µM |
| COc1ccc(-c2cccs2)c(-c2ccc3cc(-c4nc5cc(C(=O)O)ccc5n4C4CCCCC4)ccc3n2)c1 | inhibition | 100 µM | NS5B polymerase | 99.37% |
| CN(C(=O)c1sccc1Cl)c1cc(-c2ccccc2)sc1C(=O)O | IC50 | - | NS3 ATPase | 5–20 µM |
| NC(=O)C(CC(=O)O)NC(=O)c1cnn2c(C3CCCCC3)c(-c3ccc(F)cc3F)cnc12 | IC50 | - | RNA-dependent RNA polymerase | 1–10 µM |
| NC(C(=O)Nc1cscc1-c1nc(C(=O)O)c(O)c(=O)[nH]1)c1ccccc1 | IC50 | - | HCV polymerase | <25 µM |
| Cc1ccc(C(=O)N(C)c2cc(-c3cccnc3)sc2C(=O)O)cc1 | IC50 | - | NS3 ATPase | 5–20 µM |
| O=C(CCCc1ccccc1)Nc1ccsc1-c1nc(C(=O)O)c(O)c(=O)[nH]1 | IC50 | - | HCV polymerase | <25 µM |
| CC(=O)c1ccc(-c2cc(NS(=O)(=O)c3c(C)cccc3C)c(C(=O)O)s2)s1 | IC50 | - | NS3 ATPase | <5 µM |
| COc1ccc(-c2ccccc2C)c(-c2ccc3cc(-c4nc5cc(C(=O)O)ccc5n4C4CCCCC4)ccc3n2)c1 | inhibition | 100 µM | NS5B polymerase | 101% |
| CN(C)CCNC(=O)c1cc2nccc(-c3ccc(-c4ccccc4)cc3)n2n1 | IC50 | - | RNA-dependent RNA polymerase | >10 µM |
| CC(=O)c1ccc(S(=O)(=O)Nc2cc(-c3ccccc3)sc2C(=O)O)cc1 | IC50 | - | NS3 ATPase | 5–20 µM |
| COc1nc(-c2sccc2NC(=O)OCc2ccccc2)nc(C(=O)O)c1O | IC50 | - | HCV polymerase | <50 µM |
| O=C(O)c1cc2nc(-c3ccc(OCc4ccccc4)cc3)c(C3CCCCC3)cn2n1 | IC50 | - | RNA-dependent RNA polymerase | 1–10 µM |
| Cc1ccc(S(=O)(=O)Nc2cc(-c3cc4ccccc4o3)sc2C(=O)O)c(C)c1 | IC50 | - | NS3 ATPase | <5 µM |
| COc1ccc2occ(-c3ccc4cc(-c5nc6cc(C(=O)O)ccc6n5C5CCCCC5)ccc4n3)c2c1 | inhibition | 100 µM | NS5B polymerase | 99.96% |
| Cc1[nH]c2ccccc2c1CC(=O)Nc1cscc1-c1nc(C(=O)O)c(O)c(=O)[nH]1 | IC50 | - | HCV polymerase | <25 µM |
| O=C(O)c1ccc2c(c1)nc(-c1ccc3nc(-c4ccc(F)cc4)c(-c4ccc(F)cc4)nc3c1)n2C1CCCCC1 | inhibition | 100 µM | NS5B polymerase | 99.86% |
| O=C(O)c1nc(-c2ccccc2)[nH]c(=O)c1O | IC50 | - | HCV polymerase | <100 µM |
| FC(F)(F)c1cccc(Oc2cccc(-c3cnc4c(-c5nn[nH]n5)cnn4c3C3CCCCC3)c2)c1 | IC50 | - | RNA-dependent RNA polymerase | 1–10 µM |
| CN(C(=O)c1ccc(C(F)(F)F)c(F)c1)c1cc(-c2ccccc2)sc1C(=O)O | IC50 | - | NS3 ATPase | 5–20 µM |
| Cc1cc(C)c(S(=O)(=O)Nc2ccccc2-c2nc(C(=O)O)c(O)c(=O)[nH]2)c(C)c1 | IC50 | - | HCV polymerase | <100 µM |

For reference, 2 entries again:

compound,endpoint,dose,protein,result
O=C(O)c1cc2nc(-c3ccc(OCc4ccccc4)cc3)c(C3CCCCC3)cn2n1,IC50,-,RNA-dependent RNA polymerase,1–10 µM
Cc1ccc(COC(=O)Nc2ccsc2-c2nc(C(=O)O)c(O)c(=O)[nH]2)cc1,IC50,-,HCV polymerase,<25 µM